Data source: PubChem BioAssay AID624099 (ICCB-Longwood, 2012)
Aim: 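Host factors E2 relies on to silence an HPV18 LCR reporter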 (primary screen). Cells: human C33A cervical carcinoma cells (HPV-negative) stably expressing BPV1 E2 and an HPV18 LCR luciferase reporter. Reagents: siRNA pool against human genes, 40 nM. Timing: 72 h. Measurement: 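HPV18 LCR reporter light per well, converted to plate-wise z-scores that exclude control wells, and averaged over triplicate plates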. Direction: mean z-score and z-score: higher = stronger reporter signal, weaker E2 silencing. Call rule: 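Hit if mean z-score reaches 2 and two or more of three replicate z-scores also reach 2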.
The whole screen tested about 21,000 reagents; shown is a random part of them. Over the whole deposit, 497 (2.4%) were called active. 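Higher z means weaker E2 silencing; only reporter increases were scored, and knock-downs that hurt cell survival may mask genuine repressor factors.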 Unmarked entries are inactive.

Knock-down of CKS2 (CDC28 protein kinase regulatory subunit 2) came out at: mean z-score 0.09; z-score, replicate A = -0.01; z-score, replicate B = 0.27; z-score, replicate C = 0.01.
Silencing of RHD (Rh blood group D antigen) gave: mean z-score 0.16; z-score, replicate A = 0.27; z-score, replicate B = 0.28; z-score, replicate C = -0.09.
LOC401087 (retired record) showed mean z-score 0.4; z-score, replicate A = 0.64; z-score, replicate B = -0.11; z-score, replicate C = 0.67.
SLC16A8 showed mean z-score 1.39; z-score, replicate A = 1.01; z-score, replicate B = 1.47; z-score, replicate C = 1.68.
CSPG4 (chondroitin sulfate proteoglycan 4) gave mean z-score 0.3; z-score, replicate A = -0.08; z-score, replicate B = 0.7; z-score, replicate C = 0.27.
After knock-down of SFTPB (surfactant protein B) the results were mean z-score 0.28; z-score, replicate A = 0.48; z-score, replicate B = 0.2; z-score, replicate C = 0.17.
For CCDC71 (coiled-coil domain containing 71) the deposit lists mean z-score 0.56; z-score, replicate A = 0.6; z-score, replicate B = 0.58; z-score, replicate C = 0.49.
With knock-down of MYO10 (myosin X), the record shows mean z-score -0.01; z-score, replicate A = 0.06; z-score, replicate B = 0.13; z-score, replicate C = -0.23.
Silencing of TLN1 (talin 1) came out at: mean z-score 0.49; z-score, replicate A = 0.75; z-score, replicate B = 0.6; z-score, replicate C = 0.12.
Silencing of HESX1 (HESX homeobox 1) came out at: mean z-score -1.31; z-score, replicate A = -0.92; z-score, replicate B = -1.45; z-score, replicate C = -1.57.
With knock-down of MAGEL2 (MAGE family member L2), the screen gave mean z-score 0.22; z-score, replicate A = 0.09; z-score, replicate B = 0.03; z-score, replicate C = 0.54.
LOC402709 (retired record) showed mean z-score -0.47; z-score, replicate A = -0.73; z-score, replicate B = -0.41; z-score, replicate C = -0.29.
Depletion of MAPKAP1 (MAPK associated protein 1) resulted in: mean z-score 1.05; z-score, replicate A = 1.01; z-score, replicate B = 1.19; z-score, replicate C = 0.94.
Against TMEM277P (transmembrane protein 277, pseudogene), the entry reads mean z-score 0.05; z-score, replicate A = 0.06; z-score, replicate B = 0.12; z-score, replicate C = -0.04.

Sorted by “z-score, replicate A” (high to low): 2 of the entries above
TLN1 (talin 1) → mean z-score: 0.49; z-score, replicate A: 0.75; z-score, replicate B: 0.6; z-score, replicate C: 0.12
HESX1 (HESX homeobox 1) → mean z-score: -1.31; z-score, replicate A: -0.92; z-score, replicate B: -1.45; z-score, replicate C: -1.57

Next reagents:
With knock-down of ELMO1 (engulfment and cell motility 1), the screen gave mean z-score -0.97; z-score, replicate A = -0.48; z-score, replicate B = -1.33; z-score, replicate C = -1.11.
RGP1 (RGP1 partner of RAB6A GEF complex) gave mean z-score 0.91; z-score, replicate A = 0.92; z-score, replicate B = 0.67; z-score, replicate C = 1.14.
Against LOC388687 (retired record) the deposit lists mean z-score -0.15; z-score, replicate A = 0; z-score, replicate B = -0.07; z-score, replicate C = -0.4.
ALKAL2 (ALK and LTK ligand 2) scored mean z-score -0.37; z-score, replicate A = -0.36; z-score, replicate B = -0.31; z-score, replicate C = -0.43.
Silencing of HARBI1 (harbinger transposase derived 1) came out at: mean z-score 0.54; z-score, replicate A = 0.4; z-score, replicate B = 0.3; z-score, replicate C = 0.91.
After knock-down of STK32C (serine/threonine kinase 32C), the record shows mean z-score 0.86; z-score, replicate A = 1.04; z-score, replicate B = 0.86; z-score, replicate C = 0.67.
STAB2 (stabilin 2) scored mean z-score 0.83; z-score, replicate A = 0.75; z-score, replicate B = 0.84; z-score, replicate C = 0.9.
After knock-down of MYCBPAP (MYCBP associated protein) the results were mean z-score -0.44; z-score, replicate A = -0.4; z-score, replicate B = -0.27; z-score, replicate C = -0.65.
After knock-down of KRTAP12-3 (keratin associated protein 12-3), the screen gave mean z-score 0.3; z-score, replicate A = 0.25; z-score, replicate B = 0.2; z-score, replicate C = 0.46.
PTGDR (prostaglandin D2 receptor) showed mean z-score 0.19; z-score, replicate A = 0.51; z-score, replicate B = 0.07; z-score, replicate C = -0.02.
For ZNF136 (zinc finger protein 136), the values are mean z-score -0.34; z-score, replicate A = -0.13; z-score, replicate B = -0.38; z-score, replicate C = -0.51.
CLDN22 (claudin 22) scored mean z-score -0.5; z-score, replicate A = -0.26; z-score, replicate B = -0.5; z-score, replicate C = -0.74.
Silencing of GCC2 (GRIP and coiled-coil domain containing 2) resulted in: mean z-score -0.7; z-score, replicate A = -0.77; z-score, replicate B = -0.75; z-score, replicate C = -0.58.
